A mixed list of measured activities; the numbers were collected in NIAID ChemDB.

All rows: growth or infection tests; organism: Mycobacterium avium; read-out: MIC

Conditions beyond the fields shown may differ between rows.

{"compound": "Cc1ccc2oc(=O)n(-c3cccc(Cl)c3)c(=S)c2c1", "strain or isolate": "MY330/88", "setting": "14 d", "result": "4 µM"}
{"compound": "N#Cc1ccc(-n2c(=O)oc3ccc(F)cc3c2=O)cc1", "strain or isolate": "CNCTC MY330/88", "result": "62.5 µM"}
{"compound": "CC(C)N=c1cc2n(-c3ccc(Cl)cc3)c3ccccc3nc-2cc1Nc1ccc(Cl)cc1", "strain or isolate": "24657", "result": "6.7 µg/mL"}
{"compound": "CCOc1cccc(NC(=O)OCC[NH+]2CCCC2)c1", "strain or isolate": "MY330/88", "result": ">1000 µM"}
{"compound": "O=c1oc2ccc(Br)cc2c(=S)n1-c1cccc(F)c1", "strain or isolate": "MY330/88", "setting": "21 d", "result": "32 µM"}
{"compound": "O=c1oc2ccc(Cl)cc2c(=O)n1-c1ccc(Cl)cc1", "strain or isolate": "CNCTC MY330/88", "result": "8 µM"}
{"compound": "COc1cccc(NC(=O)OCC[NH+]2CCCC2)c1", "strain or isolate": "MY330/88", "result": ">1000 µM"}
{"compound": "COc1ccc(-n2c(=O)oc3ccc(F)cc3c2=O)cc1", "strain or isolate": "CNCTC MY330/88", "result": "31 µM"}
{"compound": "CCCCOc1cccc(NC(=O)OCCN2CCCCCC2)c1", "strain or isolate": "MY330/88", "result": "62.5 µM"}
{"compound": "O=c1oc2ccccc2c(=O)n1-c1cccc([N+](=O)[O-])c1", "strain or isolate": "CNCTC MY330/88", "result": "16 µM"}
{"compound": "O=c1oc2ccc(Br)cc2c(=S)n1-c1cccc(Cl)c1", "strain or isolate": "MY330/88", "setting": "14 d", "result": "16 µM"}
{"compound": "CCCOc1cccc(NC(=O)OCC[NH+]2CCCC2)c1", "strain or isolate": "MY330/88", "result": "500 µM"}
{"compound": "O=c1oc2ccc(Br)cc2c(=S)n1-c1ccc(C(F)(F)F)cc1", "strain or isolate": "MY330/88", "setting": "21 d", "result": "62.5 µM"}
{"compound": "CCCCCCCOc1ccccc1NC(=O)OCCN1CCCCCC1", "strain or isolate": "MY330/88", "result": "32 µM"}
{"compound": "COc1ccc(-n2c(=O)oc3cc(C)ccc3c2=O)cc1", "strain or isolate": "CNCTC MY330/88", "result": "31 µM"}
{"compound": "O=c1oc2ccc(F)cc2c(=S)n1-c1cccc(Cl)c1", "strain or isolate": "MY330/88", "setting": "14 d", "result": "4 µM"}

Again, the opening 2 rows:

Cc1ccc2oc(=O)n(-c3cccc(Cl)c3)c(=S)c2c1 ; strain or isolate: MY330/88 ; setting: 14 d ; result: 4 µM
N#Cc1ccc(-n2c(=O)oc3ccc(F)cc3c2=O)cc1 ; strain or isolate: CNCTC MY330/88 ; result: 62.5 µM